Values from PubChem BioAssay AID624099 (ICCB-Longwood, 2012).
The deposit covers about 21,000 reagents; below is a part drawn at random. 497 of all reagents (2.4%) were called active. 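Higher z means weaker E2 silencing; only reporter increases were scored, and knock-downs that hurt cell survival may mask genuine repressor factors.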

Aim: 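Human genes that papillomavirus E2 requires to repress the HPV18 LCR promoter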 (primary screen)
Cells: human C33A cervical carcinoma cells (HPV-negative) stably expressing BPV1 E2 and an HPV18 LCR luciferase reporter
Reagents: siRNA pool against human genes, 40 nM
Duration: 72 h
Measured: 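HPV18 LCR reporter light per well, converted to plate-wise z-scores that exclude control wells, and averaged over triplicate plates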
Reading the numbers: mean z-score and z-score: higher = stronger reporter signal, weaker E2 silencing
Hit rule: 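Hit if mean z-score reaches 2 and two or more of three replicate z-scores also reach 2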

mean z-score | z-score, replicate A | z-score, replicate B | z-score, replicate C | Call | gene knocked down
-1.17 | -1.18 | -1.45 | -0.87 | inactive | MOCS3
-0.91 | -1.27 | -0.85 | -0.61 | inactive | PRR12
0.26 | 0.31 | 0.14 | 0.33 | inactive | BTBD10
0.25 | 0.24 | 0.21 | 0.29 | inactive | AP4S1
-0.3 | -0.4 | -0.13 | -0.36 | inactive | DHX38
-0.17 | -0.39 | -0.06 | -0.05 | inactive | KDM2B
-1.37 | -1.64 | -1.7 | -0.76 | inactive | ZFP90
1.98 | 1.52 | 1.77 | 2.66 | inactive | CARD8
-0.19 | -0.41 | 0.08 | -0.23 | inactive | FAM53A
0.21 | 0.34 | 0.24 | 0.04 | inactive | SERF1A
0.6 | 0.63 | 0.59 | 0.59 | inactive | PIN4
-0.55 | -0.72 | -0.21 | -0.73 | inactive | LOC140103 (retired record)
0.8 | 0.79 | 0.68 | 0.91 | inactive | SLC7A5P2
-0.69 | -0.88 | -0.56 | -0.63 | inactive | KLK8
1.24 | 1.32 | 0.95 | 1.46 | inactive | ZNF146
1.92 | 2.08 | 1.78 | 1.91 | inactive | ABCD3
-0.22 | -0.2 | -0.16 | -0.3 | inactive | CGB5
-0.26 | -0.19 | -0.33 | -0.26 | inactive | XPC
0.5 | 0.17 | 0.63 | 0.69 | inactive | TAS1R1
0.09 | 0 | -0.18 | 0.43 | inactive | IKZF2
-0.49 | -0.73 | -0.52 | -0.21 | inactive | NETO2
-0.87 | -0.88 | -0.84 | -0.88 | inactive | SYT10
2.66 | 2.46 | 2.73 | 2.78 | active | NECTIN2

In a second layout: entries from further up.
{"gene knocked down": "SERF1A", "mean z-score": 0.21, "z-score, replicate A": 0.34, "z-score, replicate B": 0.24, "z-score, replicate C": 0.04, "Call": "inactive"}
{"gene knocked down": "PIN4", "mean z-score": 0.6, "z-score, replicate A": 0.63, "z-score, replicate B": 0.59, "z-score, replicate C": 0.59, "Call": "inactive"}
{"gene knocked down": "LOC140103 (retired record)", "mean z-score": -0.55, "z-score, replicate A": -0.72, "z-score, replicate B": -0.21, "z-score, replicate C": -0.73, "Call": "inactive"}
